The text below walks through data of publication PMC6185908, “Epistasis studies reveal redundancy among calcium-dependent protein kinases in motility and invasion of malaria parasites” (2018).

Protein sequences, listed by entry. Tags and fused reporters are not part of them. Lines headed by an entry give the natural chain unless they say otherwise; changes in a name come on top. Residues count along the entry.
UniProt Q8I719: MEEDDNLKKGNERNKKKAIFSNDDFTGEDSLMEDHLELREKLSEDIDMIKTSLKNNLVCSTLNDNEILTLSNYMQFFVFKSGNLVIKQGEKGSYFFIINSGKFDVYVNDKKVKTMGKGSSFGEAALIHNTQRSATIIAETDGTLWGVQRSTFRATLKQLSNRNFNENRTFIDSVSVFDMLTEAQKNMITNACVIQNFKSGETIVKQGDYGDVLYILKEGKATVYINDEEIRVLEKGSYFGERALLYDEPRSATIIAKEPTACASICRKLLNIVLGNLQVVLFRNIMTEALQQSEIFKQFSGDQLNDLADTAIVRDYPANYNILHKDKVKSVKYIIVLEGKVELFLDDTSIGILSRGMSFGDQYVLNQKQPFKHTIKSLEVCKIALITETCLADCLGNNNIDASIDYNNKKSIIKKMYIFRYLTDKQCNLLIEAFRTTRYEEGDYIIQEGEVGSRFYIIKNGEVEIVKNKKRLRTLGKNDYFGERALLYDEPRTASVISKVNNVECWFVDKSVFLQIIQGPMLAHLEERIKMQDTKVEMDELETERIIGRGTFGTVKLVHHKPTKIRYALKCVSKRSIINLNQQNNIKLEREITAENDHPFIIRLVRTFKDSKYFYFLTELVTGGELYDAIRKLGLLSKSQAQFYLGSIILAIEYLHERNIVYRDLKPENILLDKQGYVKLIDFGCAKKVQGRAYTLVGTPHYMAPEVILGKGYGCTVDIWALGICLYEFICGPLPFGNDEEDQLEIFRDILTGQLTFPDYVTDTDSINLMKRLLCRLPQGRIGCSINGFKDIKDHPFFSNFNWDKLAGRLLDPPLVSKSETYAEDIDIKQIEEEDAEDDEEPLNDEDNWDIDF
UniProt P62345, 2-528 limits assumed: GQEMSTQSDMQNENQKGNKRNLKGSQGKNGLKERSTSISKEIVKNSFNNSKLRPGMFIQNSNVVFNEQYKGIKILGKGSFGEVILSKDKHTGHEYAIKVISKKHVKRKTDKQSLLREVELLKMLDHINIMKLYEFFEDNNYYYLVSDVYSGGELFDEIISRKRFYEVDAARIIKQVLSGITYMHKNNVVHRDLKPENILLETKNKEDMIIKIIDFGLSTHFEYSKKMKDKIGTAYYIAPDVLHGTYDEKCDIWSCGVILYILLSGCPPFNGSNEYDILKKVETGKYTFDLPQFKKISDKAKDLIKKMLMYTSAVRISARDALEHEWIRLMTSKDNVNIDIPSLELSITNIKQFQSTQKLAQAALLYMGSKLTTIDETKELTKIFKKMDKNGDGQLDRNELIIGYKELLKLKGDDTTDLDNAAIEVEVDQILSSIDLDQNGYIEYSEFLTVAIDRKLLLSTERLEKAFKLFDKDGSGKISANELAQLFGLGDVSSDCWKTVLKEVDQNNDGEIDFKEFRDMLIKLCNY

Assay [1] concerns the target PKG (PfPKG, cGMP-dependent protein kinase) (Plasmodium falciparum, UniProt Q8I719). As to the kind of experiment: schizont rupture in 3D7 versus C2-resistant PKG T618Q gatekeeper line.
The target in assay [2] is CDPK4 (PbCDPK4, calcium-dependent protein kinase 4) (Plasmodium berghei, UniProt P62345). As to the kind of experiment: ring formation in C2 after complementation with CDPK4 versus S147M gatekeeper mutant.
Assay [3] concerns the target PfPKG (cGMP-dependent protein kinase) (Plasmodium falciparum, UniProt Q8I719). As to the kind of experiment: ATP Km determination with recombinant kinase.

In turn, `CN(C)Cc1ccn2c(-c3ccnc(N)n3)c(-c3ccc(F)cc3)nc2c1` came in with a concentration giving a half-maximal response (EC50) in assay [1] of 800 nM. In assay [2], the “ring formation in C2 after complementation with CDPK4 versus S147M gatekeeper mu” value is “Complementation with PbCDPK4-2xmyc lowers ring formation in the presence of C2, while complementation with the PbCDPK4^S147M-2xmyc allele does not”.
With `Nc1ncnc2c1ncn2[C@@H]1O[C@H](COP(=O)(O)OP(=O)(O)OP(=O)(O)O)[C@@H](O)[C@H]1O`, in assay [3], the Km was determined as 19.6 µM.
